Anti-infective test results gathered from many reports (values: NIAID ChemDB through PubChem).

All rows: whole-cell or culture tests; agent: HIV-1; cell line: PBMC; measure: EC50

a–b is a range or a potency band. An empty or dashed field is not shown. ECn: concentration that inhibits the pathogen or its effect by n%. Neighbouring rows are from separate reports.

smiles | strain or isolate | changes | read by | setting | value
c1cc(CN2CCCNCCNCCCNCC2)ccc1CN1CCCNCCNCCCNCC1 | PCP1 CLADE C R5 CXCR6 | - | p24 | - | >0.5 µM
O=C1N(Cc2ccc(CO)cc2)[C@H](Cc2ccccc2)[C@H](O)[C@@H](O)[C@@H](Cc2ccccc2)N1Cc1ccc(CO)cc1 | A012D POST AZT | - | p24 | - | 0.07 µM
S=C(NCCc1cccs1)Nc1ccc(Br)cn1 | G691-2 Clinical isolate NRTI-resistant | RT-D67N K70R T215E K219Q | p24 | - | 0.00004 µM
CCc1c(C(=O)c2cc(C)cc(C)c2)n(CC2CC=CC2)c(=O)[nH]c1=O | SIKA | - | cytopathic effect / XTT | clinical isolate | 0.0008 µM
Cc1ccnc2c1NC(=O)c1cccnc1N2C1CC1 | IIIB | - | p24 | - | 0.024 µM
CC(C)(C)NC(=O)[C@@H]1C[C@@H]2CCCC[C@@H]2CN1C[C@@H](O)[C@H](Cc1ccccc1)NC(=O)[C@H](CC(N)=O)NC(=O)c1ccc2ccccc2n1 | LAI | - | - | - | 0.0122 µM
Nc1ccn([C@@H]2CS[C@H](CO)O2)c(=O)n1 | 7295-1 NRTI resistant recombinant | RT-D67N T69N K70R M184V T215F K219Q | RT activity | - | >10 µM
CC(C)=CCN1Cc2cc(Cl)cc3[nH]c(=S)n(c23)C[C@@H]1C | BCF02 | RT-A98G V106I Y181C | - | - | >6.25 µM
Cc1cn([C@H]2C[C@H](N=[N+]=[N-])[C@@H](CO)O2)c(=O)[nH]c1=O | Recombinant | RT-M184V | p24 | - | 5–10 µM
COC(=O)[C@H](C)NP(=O)(OC[C@@H]1C=C[C@H](n2cc(C)c(=O)[nH]c2=O)O1)Oc1ccc(Br)cc1 | 7295-1 NRTI resistant recombinant | RT-D67N T69N K70R M184V T215F K219Q | p24 | - | 0.043 µM
Nc1ccn([C@H]2CC[C@@H](CO)O2)c(=O)n1 | BCF07 | RT-A98G V106I Y181C | - | - | 0.06 µM
O=c1[nH]cnc2c1ncn2[C@H]1CC[C@@H](CO)O1 | Recombinant | RT-F116Y | p24 | - | 0.3 µM
COC(=O)[C@H](C)NP(=O)(OC[C@@H]1C=C[C@H](n2cc(C)c(=O)[nH]c2=O)O1)Oc1ccc(Br)cc1 | G890-1 Clinical isolate ZDV-resistant | RT-K20R M41L D67N T69N K70R L210W T215Y | p24 | - | 0.006 µM
O=C(O)P(=O)(O)O | 9632 CLADE B CLADE B | - | p24 | - | 7.82 µM

The last 2 rows once more:

smiles,strain or isolate,changes,read by,setting,value
COC(=O)[C@H](C)NP(=O)(OC[C@@H]1C=C[C@H](n2cc(C)c(=O)[nH]c2=O)O1)Oc1ccc(Br)cc1,G890-1 Clinical isolate ZDV-resistant,RT-K20R M41L D67N T69N K70R L210W T215Y,p24,-,0.006 µM
O=C(O)P(=O)(O)O,9632 CLADE B CLADE B,-,p24,-,7.82 µM